Anti-infective test results gathered from many reports (values: NIAID ChemDB through PubChem).

Shared fields: tests in culture; organism: Hepatitis C virus; measure: inhibition

Two numbers with a dash give a range or band. Inhibition is in % at the dose shown (toxicity tests: loss of growth or viability). Blank or dashed fields: not listed here. Rows are shuffled and stem from different studies.

SMILES	strain or isolate	dose	method	changes	conditions	cells	value
CCCCN(CCCC)CN1C(=O)/C(=N\c2ncc(Cc3cc(OC)c(OC)c(OC)c3)c(N)n2)c2cc(Br)ccc21	-	50 µg/mL	replicon	-	-	Huh7	0%
O=C1CSC(=Nc2nnc(-c3cccc(F)c3)s2)N1	GT1b	50 µM	luciferase	-	-	Huh7	25%
CCN(CC)CN1C(=O)/C(=N\c2ncc(Cc3cc(OC)c(OC)c(OC)c3)c(N)n2)c2cc(Br)ccc21	-	50 µg/mL	replicon	-	-	Huh7	24%
COc1cc(Cc2cnc(/N=C3\C(=O)N(CN4CCN(C)CC4)c4ccc(F)cc43)nc2N)cc(OC)c1OC	-	50 µg/mL	-	-	-	Huh7	96%
CC#COCN1CCC(C(=O)Nc2cccc(-c3cc4ccccc4[nH]3)c2)CC1	JFH-1	5 µM	PCR	-	-	Huh7	≥40%
O=C1N/C(=N\c2nnc(-c3ccc(Cl)cc3)s2)S/C1=C\c1c(F)cccc1Cl	-	100 µM	MTS	-	-	Huh7/Rep-Feo1b	0%
O=C(/C=C/c1ccc(O)cc1)OCC1=C[C@@H](O)[C@@H]2C=CO[C@@H](OC3O[C@H](CO)[C@@H](O)[C@H](O)[C@H]3O)[C@H]12	-	20 µg/mL	entry	-	-	-	0%
O=C(Nc1cccc(-c2ccco2)c1)C1CCN(C(=O)CCc2ccco2)CC1	JFH-1	15 µM	PCR	-	-	Huh7	<40%
Cc1cc(C)cc(Nc2nc3ccc(C)cc3s2)c1	-	20 µM	luciferase	-	-	Huh7	85%
COC(=O)C1=CO[C@@H](OC2O[C@H](CO)[C@@H](O)[C@H](O)[C@H]2O)[C@H]2[C@@H]1C=C[C@@]2(O)CO	-	20 µg/mL	entry	-	-	-	0%
O=c1[nH]cnc2c1sc(=S)n2Cc1ccccc1	GT2a	50 µM	luciferase / reporter gene	-	-	Huh7.5	35%
O=C(/C=C/c1ccc(O)cc1)OCC1=C[C@@H](O)[C@@H]2C=CO[C@@H](O)[C@H]12	-	20 µg/mL	entry	-	-	-	56.6%
COc1cc([C@@H]2O[C@H](c3cc(OC)c4c(c3)OCO4)[C@@H](C)[C@@H]2C)cc(OC)c1OC	Subgenomic replicon S52	12.5 µM	luciferase	T1056A T1429I S2204I	-	Huh7.5	96%
COc1cc(Cc2cnc(/N=C3\C(=O)N(CN4CCN(c5ccccc5)CC4)c4ccc(F)cc43)nc2N)cc(OC)c1OC	-	50 µg/mL	-	-	-	Huh7	98%
O=C1NC(=Nc2nnc(-c3cccnc3)s2)SC1=Cc1c(Cl)cccc1Cl	GT1b	50 µM	luciferase	-	-	Huh7	92%
C[C@H]1[C@H]2[C@H](O)OC=C(C(=O)O)[C@H]2C[C@@H]1O	-	20 µg/mL	entry	-	-	-	5.3%
Cc1ccc2nc(Nc3ccc([N+](=O)[O-])cc3)sc2c1	-	20 µM	luciferase	-	-	Huh7	38%
O=C1CSC(=Nc2nnc(-c3c(F)cccc3Cl)s2)N1	GT1b	50 µM	luciferase	-	-	Huh7	34%
Cn1c(=O)c2c(ncn2C)n(C)c1=O	JFH-1	2000 µM	luciferase / replicon	-	-	Huh7.5	82%
CC1(C)CC[C@@]2(C(=O)NCc3cn(CCCCCCn4cc(CNC(=O)[C@]56CCC(C)(C)CC5C5=CCC7[C@@]8(C)CC[C@H](O)C(C)(C)C8CC[C@@]7(C)[C@]5(C)C[C@H]6O)nn4)nn3)C(C1)C1=CCC3[C@@]4(C)CC[C@H](O)C(C)(C)C4CC[C@@]3(C)[C@]1(C)C[C@H]2O	-	5 µM	luciferase / entry	-	-	Huh7	76.9%
CCC(NC(=O)[C@@H]1[C@H]2CC=C[C@H]2CN1C(=O)[C@@H](NC(=O)[C@@H](NC(=O)c1cnccn1)C(C)C)C(C)C)C(=O)C(=O)N[C@@H](Cc1ccccc1)C(=O)O	-	25 µM	-	-	-	-	0%
Cc1cc(Cn2cc(CNC(=O)[C@]34CCC(C)(C)CC3C3=CCC5[C@@]6(C)CC[C@H](O)C(C)(C)C6CC[C@@]5(C)[C@]3(C)C[C@H]4O)nn2)c(C)cc1Cn1cc(CNC(=O)[C@]23CCC(C)(C)CC2C2=CCC4[C@@]5(C)CC[C@H](O)C(C)(C)C5CC[C@@]4(C)[C@]2(C)C[C@H]3O)nn1	-	5 µM	luciferase / entry	-	-	Huh7	81.3%
O=c1[nH]cnc2c1cnn2Cc1ccccc1	GT2a	50 µM	luciferase / reporter gene	-	-	Huh7.5	70%
CC1(C)CC[C@]2(C(=O)O)CC[C@]3(C)C(=CC[C@@H]4[C@@]5(C)CC[C@H](O)C(C)(C)[C@@H]5CC[C@]43C)[C@@H]2C1	-	5 µM	luciferase / entry	-	-	Huh7	26.4%
COC(=O)C1=CO[C@@H](O)[C@H]2[C@@H]1C(=O)C[C@@H]2C	-	20 µg/mL	entry	-	-	-	43.4%
CC1(C)CC[C@@]2(C(=O)NCc3cn(CCCO)nn3)C(C1)C1=CCC3[C@@]4(C)CC[C@H](O)C(C)(C)C4CC[C@@]3(C)[C@]1(C)C[C@H]2O	-	5 µM	luciferase / entry	-	-	Huh7	67.1%
N#Cc1c(SCc2ccncc2)sc2c(=O)[nH]c(=O)[nH]c12	GT1b	50 µM	luciferase / reporter gene	-	-	Huh7	38%
COc1cc(/C=C/C(=O)CC(=O)/C=C/c2ccc(O)c(OC)c2)ccc1O	-	15 µM	luciferase / reporter gene	-	-	Huh7/Rep-Feo cells	40–60%
CCc1nc(CN2CCC(C(=O)Nc3cccc(-c4cccc(F)c4)c3)CC2)c(C)[nH]1	JFH-1	15 µM	PCR	-	-	Huh7	≥40%
COc1cc(Cc2cnc(/N=C3\C(=O)N(CN4CCN(c5ccc(Cl)cc5)CC4)c4ccc(F)cc43)nc2N)cc(OC)c1OC	-	50 µg/mL	-	-	-	Huh7	90%
COc1ccc(Nc2nc3ccc(C)cc3s2)c(OC)c1	-	20 µM	luciferase	-	-	Huh7	21%
COc1cc(Cc2cnc(/N=C3\C(=O)N(CN4CCN(c5cccc(C(F)(F)F)c5)CC4)c4ccc(Br)cc43)nc2N)cc(OC)c1OC	-	50 µg/mL	replicon	-	-	Huh7	2%
Cc1n[nH]c(=O)c2cc3c(C)n[nH]c(=O)c3cc12	GT2a	50 µM	luciferase / reporter gene	-	-	Huh7.5	55%
CCCn1ncc(CN2CCC(C(=O)Nc3ccc(Oc4ccccc4F)cc3)CC2)c1C	JFH-1	15 µM	PCR	-	-	Huh7	≥40%
COc1cc([C@H]2O[C@@H](c3cc(OC)c4c(c3)OCO4)[C@@H](C)[C@@H]2C)cc2c1OCO2	Subgenomic replicon JFH-1	25 µM	luciferase	-	-	Huh7.5	87%
Cc1ccc2nc(Nc3ccc(OCc4ccccc4)cc3)sc2c1	-	20 µM	luciferase	-	-	Huh7	35%
O=C1NC(=Nc2nnc(-c3c(F)cccc3Cl)s2)SC1=Cc1c(Cl)cccc1Cl	GT1b	50 µM	luciferase	-	-	Huh7	84%
CC1(C)CC[C@@]2(C(=O)NCCn3cc(CN(Cc4cn(C(C)(C)C)nn4)Cc4cn(C(C)(C)C)nn4)nn3)C(C1)C1=CCC3[C@@]4(C)CC[C@H](O)C(C)(C)C4CC[C@@]3(C)[C@]1(C)C[C@H]2O	-	5 µM	luciferase / entry	-	-	Huh7	57.9%
C=C(C)[C@@H]1CC[C@]2(C(=O)O)CC[C@]3(C)[C@H](CC[C@@H]4[C@@]5(C)CC[C@H](O)C(C)(C)[C@@H]5CC[C@]43C)[C@@H]12	-	5 µM	luciferase / entry	-	pseudotyped	Huh7	1.9%
CC1(C)CC[C@@]2(C(=O)NCc3cn(CCOCCn4cc(CNC(=O)[C@]56CCC(C)(C)CC5C5=CCC7[C@@]8(C)CC[C@H](O)C(C)(C)C8CC[C@@]7(C)[C@]5(C)C[C@H]6O)nn4)nn3)C(C1)C1=CCC3[C@@]4(C)CC[C@H](O)C(C)(C)C4CC[C@@]3(C)[C@]1(C)C[C@H]2O	-	1 µM	luciferase / entry	-	-	Huh7	70.6%
COc1cc(Cc2cnc(/N=C3\C(=O)N(CN4CCN(Cc5ccccc5)CC4)c4ccc(Br)cc43)nc2N)cc(OC)c1OC	-	50 µg/mL	replicon	-	-	Huh7	26%